The target in the assay is Maltose-binding protein-fused chimeric CLDN1 (MBP-CC1) (human (CLDN1 part)). Briefly: SPR.

In publication PMC8124314, “Chimeric Claudins: A New Tool to Study Tight Junction Structure and Function” (2021) one finds Kd, koff and kon data, which are given here for 1 substance.

pKd: −log10 of the molar value.

The pKd is the negative decadic logarithm of the Kd, by convention in mol/L. Higher therefore signals a small Kd. By koff is commonly meant the rate constant with which the complex falls apart. As usually defined, the kon is the rate constant with which the complex forms. Low readings indicate slower complex formation, high ones faster complex formation. Turning to “MBP-fused Clostridium perfringens enterotoxin (MBP-CPE) (domain or fragment)”, the pKd was 6.37, the dissociation rate constant (koff) came out at 0.000871 s⁻¹ and the kon turned out to be 2060 M⁻¹ s⁻¹.
